Results reported in paper PMC9774241, “Associating Biological Activity and Predicted Structure of Antimicrobial Peptides from Amphibians and Insects” (Antibiotics, 2022).
Residues, ends and D or L forms follow the SMILES beside them. No end group written: not given here.

Experiments:
Format in all cases: cell-based
[1] = test system: Salmonella enterica serovar Enteritidis (human clinical isolate); conditions: column headed Salmonella Enteritidis; ratio of the toxicity to the MIC; range; N/O = no observed antimicrobial activity
Method: (§1) Bacteria were grown overnight at 37 °C in Mueller-Hinton Broth (MHB; Sigma-Aldrich, St. Louis. MO, USA) in a shaking incubator and aliquoted into cryovials with a 50% glycerol solution in a 1:1 ratio. No additives were added to the MHB during the growth of bacterial isolates. Glycerol stocks were stored at −80 °C.
(§2) The antimicrobial activity of the putative AMPs was determined by a broth microdilution assay as described by the Clinical and Laboratory Standards Institute, with the published adaptations for testing of cationic peptides. Escherichia coli 25922 and Staphylococcus aureus 29213 isolates were purchased from the American Type Culture Collection (ATCC; Manassas, VA, USA). A human clinical isolate of Salmonella enterica serovar Enteritidis was provided by the BC Centre for Disease Control. Bacteria from stocks stored at −80 °C were streaked onto nonselective Columbia blood agar with 5% sheep blood (Oxoid) and incubated overnight at 37 °C. Next, 2–4 colonies were streaked onto a new agar plate to ensure uniform health of colonies used in the broth microdilution assay. Isolated colonies were suspended in MHB and the optical density was measured with a spectrophotometer to create an initial inoculum concentration of approximately 1 × 10^8 cfu/mL. The inoculum was diluted 1:250 to a final concentration of 2–8 × 10^5 cfu/mL, which was confirmed by performing a Total Viability Count (TVC). The TVC consisted of plating a 1:1000 dilution of the final inoculum on nonselective media and was also used to confirm the health and purity of the inoculum in each trial.
(§3) Lyophilized 80 µg peptide aliquots synthesized by GenScript (Piscataway, NJ, USA) were resuspended to 1.28 mg/mL with UltraPure water (Thermo Fisher Scientific, Waltham, MA, USA) and serially diluted in polypropylene 96-well microtiter plates (Greiner Bio-One #650261, Kremsmünster, Austria) from 128 down to 0.5 µg/mL. Two columns per plate were reserved for growth and sterility controls. Inoculum was added to the wells containing the peptide and the growth control. Plates were incubated for 20–24 h at 37 °C. The minimum inhibitory concentration (MIC) was determined as the lowest peptide concentration where there was no visible bacterial growth.

[2] = test system: Staphylococcus aureus ATCC 29213; conditions: column headed S. aureus ATCC 29213; ratio of the toxicity to the MIC; range; N/O = no observed antimicrobial activity
Method: as §1, §2, §3

[3] = test system: Escherichia coli ATCC 25922; conditions: ratio of the toxicity to the MIC; range; N/O = no observed antimicrobial activity
Method: as §1, §2, §3

| Molecule | Selectivity Index, Salmonella Enteritidis [1] | Selectivity Index, S. aureus ATCC 29213 [2] | Selectivity Index, E. coli ATCC 25922 [3] |
| --- | --- | --- | --- |
| GLISGILGAGKKVLC [OdMa9] | N/O |  |  |
| CC[C@H](C)[C@H](NC(=O)[C@H](CO)NC(=O)[C@@H]1CCCN1C(=O)[C@H](CC(C)C)NC(=O)[C@@H](NC(=O)[C@H](CCCCN)NC(=O)[C@H](C)NC(=O)[C@H](C)NC(=O)[C@H](CC(C)C)NC(=O)CNC(=O)[C@H](C)NC(=O)[C@@H](NC(=O)[C@@H](NC(=O)[C@@H]1CCCN1C(=O)[C@H](CC(C)C)NC(=O)[C@H](Cc1ccccc1)NC(=O)[C@H](CCCNC(=N)N)NC(=O)[C@H](CCC(N)=O)NC(=O)[C@H](CCC(=O)O)NC(=O)[C@@H](N)CCC(=O)O)C(C)C)C(C)C)C(C)C)C(=O)N[C@H](C(=O)N[C@@H](CS)C(=O)N[C@@H](C)C(=O)N[C@H](C(=O)N[C@H](C(=O)N[C@@H](CCCCN)C(=O)N[C@@H](CCCCN)C(=O)N[C@@H](CS)C(=O)O)[C@@H](C)O)C(C)C)[C@@H](C)CC [RaSy2] (H-EEQRFLPVVAGLAAKVLPSIICAVTKKC-OH; N-terminus and C-terminus assumed) |  | N/O |  |
| GFMDTAKNVAKNVAVTLLDNLKCKITKAC [OdMa13, rAMPage-discovered AMP, Odorrana margaretae] | N/O | N/O |  |
| RRAIFASIRGYLGLRKR [MyGu1] | > 1 |  |  |
| CC[C@H](C)[C@H](NC(=O)[C@H](CO)NC(=O)[C@@H]1CCCN1C(=O)[C@H](CC(C)C)NC(=O)[C@@H](NC(=O)[C@H](CCCCN)NC(=O)[C@H](C)NC(=O)[C@H](C)NC(=O)[C@H](CC(C)C)NC(=O)CNC(=O)[C@H](C)NC(=O)[C@@H](NC(=O)[C@@H](NC(=O)[C@@H]1CCCN1C(=O)[C@H](CC(C)C)NC(=O)[C@@H](N)Cc1ccccc1)C(C)C)C(C)C)C(C)C)C(=O)N[C@H](C(=O)N[C@@H](CS)C(=O)N[C@@H](C)C(=O)N[C@H](C(=O)N[C@H](C(=O)N[C@@H](CCCCN)C(=O)N[C@@H](CCCCN)C(=O)N[C@@H](CS)C(=O)O)[C@@H](C)O)C(C)C)[C@@H](C)CC [RaCa15] (H-FLPVVAGLAAKVLPSIICAVTKKC-OH; N-terminus and C-terminus assumed) |  | N/O |  |
| TALKSLSILKKLAKLNM [PoSn2, rAMPage-discovered AMP, Polistes snelleni] | N/O | N/O |  |
| RKIIAVSVHKLCRVKR [BoUs1] |  | > 2 |  |
| GLVGKLVKGGLKLIGHVANG [RaSi1] |  | N/O |  |
| CC(C)C[C@H](NC(=O)CN)C(=O)N[C@@H](CC(C)C)C(=O)NCC(=O)N[C@@H](CCCCN)C(=O)N[C@H](C(=O)N[C@@H](CC(C)C)C(=O)NCC(=O)N[C@H](C(=O)NCC(=O)N[C@@H](CCCCN)C(=O)N[C@@H](CCCCN)C(=O)N[C@H](C(=O)N[C@@H](CC(C)C)C(=O)N[C@@H](CS)C(=O)NCC(=O)N[C@H](C(=O)N[C@H](C(=O)NCC(=O)N[C@@H](CCCNC(=N)N)C(=O)N[C@@H](CCC(=O)O)C(=O)N[C@@H](CCCNC(=N)N)C(=O)N[C@@H](CS)C(=O)N[C@@H](CCC(N)=O)C(=O)O)[C@@H](C)O)C(C)C)C(C)C)C(C)C)C(C)C [PeNi5] (H-GLLGKVLGVGKKVLCGVTGRERCQ-OH; N-terminus and C-terminus assumed) | N/O |  |  |
| GILRSLGWIQMPRSRRRHR [AnFl2] |  | > 1 |  |
| CC[C@H](C)[C@H](NC(=O)CNC(=O)[C@H](CO)NC(=O)[C@@H](NC(=O)[C@H](CC(C)C)NC(=O)CN)[C@@H](C)CC)C(=O)N[C@@H](CC(C)C)C(=O)NCC(=O)N[C@@H](C)C(=O)NCC(=O)N[C@@H](CCCCN)C(=O)N[C@@H](CCCCN)C(=O)N[C@H](C(=O)N[C@@H](CC(C)C)C(=O)N[C@@H](CS)C(=O)NCC(=O)N[C@@H](CC(C)C)C(=O)N[C@@H](CO)C(=O)NCC(=O)N[C@@H](CC(C)C)C(=O)N[C@@H](CS)C(=O)O)C(C)C [OdMa10] (H-GLISGILGAGKKVLCGLSGLC-OH; N-terminus and C-terminus assumed) |  | N/O |  |
| GILSGLLGAGKKIVC [OdMa4] | N/O |  |  |
| AFVRILCYCCPRRIKRR [TeRu2, rAMPage-discovered AMP, Temnothorax rugatulus] | N/O | N/O |  |
| CC[C@H](C)[C@H](NC(=O)CN)C(=O)N[C@@H](Cc1ccccc1)C(=O)NCC(=O)NCC(=O)N[C@@H](Cc1c[nH]cn1)C(=O)N[C@@H](CC(C)C)C(=O)N[C@@H](CCCCN)C(=O)N[C@H](C(=O)NCC(=O)N[C@@H](CCCCN)C(=O)N[C@@H](CCCCN)C(=O)N[C@H](C(=O)N[C@@H](C)C(=O)N[C@@H](CS)C(=O)NCC(=O)N[C@@H](CC(C)C)C(=O)N[C@@H](CO)C(=O)NCC(=O)N[C@@H](CC(C)C)C(=O)N[C@@H](CS)C(=O)O)[C@@H](C)CC)C(C)C [OdTo2] (H-GIFGGHLKVGKKIACGLSGLC-OH; N-terminus and C-terminus assumed) | N/O | N/O |  |
| SWLSKSVKKLVNKKNYTRLEKLAKKKLFNE [TeRu4] |  |  | > 128 |
| GILSGLLGAGKKIVCGLSGMC [RaOm2, rAMPage-discovered AMP, Rana omeimontis] | N/O | N/O |  |
| CC[C@H](C)[C@H](NC(=O)[C@H](CCCCN)NC(=O)[C@H](CS)NC(=O)[C@H](Cc1ccccc1)NC(=O)[C@H](CCCCN)NC(=O)[C@H](CCCNC(=N)N)NC(=O)[C@H](CO)NC(=O)[C@H](Cc1ccc(O)cc1)NC(=O)CNC(=O)[C@H](CS)NC(=O)[C@@H]1CCCN1C(=O)[C@H](C)NC(=O)[C@@H](NC(=O)[C@H](C)NC(=O)[C@H](Cc1ccccc1)NC(=O)[C@H](Cc1ccccc1)NC(=O)[C@H](Cc1ccccc1)NC(=O)[C@H](CCCNC(=N)N)NC(=O)[C@@H](N)CCCNC(=N)N)[C@@H](C)O)C(=O)N[C@H](C(=O)N[C@@H](CCCNC(=N)N)C(=O)N[C@@H](CCCNC(=N)N)C(=O)N[C@@H](CCCCN)C(=O)N[C@@H](CCCNC(=N)N)C(=O)O)[C@@H](C)O [CaCa4] (H-RRFFFATAPCGYSRKFCKITRRKR-OH) | N/O |  |  |
| GILRLVTRRFRFSPTNLNRYTVARLVSGVP [BoAr6] |  | > 2 |  |
| GIFGGLLKEGKKIACGLSGLC [OdTo3, rAMPage-discovered AMP, Odorrana tormota] | N/O | N/O |  |
| CC[C@H](C)[C@H](NC(=O)[C@@H](N)C(C)C)C(=O)N1CCC[C@H]1C(=O)N[C@@H](Cc1ccccc1)C(=O)N[C@H](C(=O)N[C@@H](C)C(=O)N[C@@H](CO)C(=O)N[C@H](C(=O)N[C@@H](C)C(=O)N[C@@H](C)C(=O)N[C@@H](CCC(=O)O)C(=O)N[C@@H](CCSC)C(=O)N[C@@H](CCSC)C(=O)N[C@@H](Cc1c[nH]cn1)C(=O)N[C@@H](Cc1c[nH]cn1)C(=O)N[C@H](C(=O)N[C@@H](Cc1ccc(O)cc1)C(=O)N[C@@H](CS)C(=O)N[C@@H](C)C(=O)N[C@@H](C)C(=O)N[C@@H](CO)C(=O)N[C@@H](CCCCN)C(=O)N[C@@H](CCCNC(=N)N)C(=O)N[C@@H](CS)C(=O)N[C@@H](CCCCN)C(=O)N[C@@H](CC(N)=O)C(=O)O)C(C)C)C(C)C)C(C)C [PeNi7] (H-VIPFVASVAAEMMHHVYCAASKRCKN-OH; N-terminus and C-terminus assumed) | N/O | N/O |  |
| ISIKEALEHSFFHTVPRKWCKKH [PoSn1] | N/O | N/O |  |
